Measurements reported in the supplement of paper PMC9931576.
Human monoclonal antibodies against the spike receptor-binding domain (heavy:light variable regions). IC50 against pseudoviruses bearing the spike of naturally observed variants; lower = stronger; >10 µg/ml means not reached at the top dose. No active / inactive call. The stated detection limit is 0.0005 µg/ml; values near or below 0.001 µg/ml lie at the floor of the assay.

B1: BD56-874 (protein)
chain 1: QVRLQESGPGLVKPSETLSLTCTVSGDSISGSYWSWIRQPPGKGLEWIGETYFSGSISERTNDNRPLKSRVTILADTSKNEFSLKLSSVTAADTAVYYCARDLSGWGLPPLWGQGTLVIVSS
chain 2: DIQMTQSPSSLSASVGDRVTITCRASQGINTYLNWYQQKPGEAPKLLIYAASSLQSGVPSRFSGSGSGTDFTLTISSLQREDFAAYYCQQSYSTPLTFGGGTKVEIK
B2: XG-017 (protein)
chain 1: EVQLVESGGGLVQPGGSLRLSCAASGIIVSRNYMTWVRQAPGKGLEWVSVIYSGGSTFYADSVKGRFTISRDNSKNTLYLQMNSLRAEDTAVYYCARGEGWDLPFDFWGQGTLVSVSS
chain 2: QSALTQPPSASGSPGQSVTISCTGTSSDVGGYNYVSWYQQEPGKAPKLMIYEVSKRPSGVPDRFSGSKSGNTASLTVSGLQAEDEAAYYCSSYAGSNNLMFGGGTKLTVL
B3: BD56-273 (protein)
chain 1: QVQLQESGPGLVKPSGTLSLTCAVSGGSISSSNWWSWVRQPPGKGLEWIGEIYHSGYTNYNPSLKSRVTISVDKSKNQFSLKLSSVTAADTAVYYCARDLGHTYTYYFDYWGQGTLVTVSS
chain 2: QSALTQPASVSGSPGQSITISCTGTSSDITGYNYVSWYQQHPGKAPKLMIYDVSDRPSGVPDRFSGSKSGNTASLTISGLQAEDEADYYCSSYTSSSTPVVFGGGTKLTVL
B4: BD56-894 (protein)
chain 1: QVQLQESGPGLVKPSQTLSLTCTVSGGSISSGDYYWNWIRQPPGKSLEWIGYIYYSGSTYYNPSLKSRVTISVDTSKNQFSLKLSSVTAADTAVYYCARDSEYDILTGYGHWYFDLWGRGTLVTVSS
chain 2: QSALTQPASVSGSPGQSITISCTGTSSDVGTYTLVSWYQQHPGKAPKLMIYEVSKRPSGVSNRFSGSKSGNTASLKISGLQAEDEADYYCCSYVSSSPVFGGGTKLTVL
B5: BD56-880 (protein)
chain 1: QVQLVQSGAEVKKPGSSVKVSCKASGGAFSSYAISWVRQAPGQGLEWMGGIIPIFGTANYAQKFQGRVTMTADESTSTVYMDLSSLRSEDTAVYYCVREGGGSYLGDHYYYGMDVWGQGTTVTVSS
chain 2: QSVLTQPPSVSGAPGQRVTISCTGSSSNIGADYDVHWYQQLPGTAPKLLIYGNSNRPSGVPDRFSGSKSGTSASLAITGLQAEDEADYYCQSYDSSLSGSKVFGTGTKVTVL
B6: BD56-893 (protein)
chain 1: EVQLVESGGGLVQPGRSLRLSCAASGFTFDDYAMHWVRQAPGKGLEWVSSISWNTGSIGYADSVKGRFTISRDNAKNSLYLQMNSLRAEDTALYYCAKDLSYCSDDSCYSGAPYYYGMDVWGQGTTVTVSS
chain 2: DIQMTQSPSSLSASVGDRVTITCQASQDISNYLNWYQQKPGKAPNLLIYDASNLETGVPSRFSGSGSGTDFTFTISSLQPEDIATYYCQQSDNLPLTFGGGTKVEIK
B7: BD56-274 (protein)
chain 1: QVQLQESGPGLVKPSGTLSLTCAVSGGSISSSHWWSWVRQPPGKGLEWIGEIYPSGSTNYNPSLKSRVTISVDKSKNQFSLKLSSVTAADTAVYYCARIHYFDGSGYQNPYDAFDIWGQGTMVTVSS
chain 2: QSALTQPASVSGSPGQSITISCTGTSSDVGGYNFVSWYQQHPDKAPKLIIYDVIERPSGVSNRFSGSKSGNTASLTISGLQAEDEADYYCSSYTTSSILFGGGTKLTVL
B8: BD-599 (protein)
chain 1: EVQLVESGGGLVQPGGSLRLSCAASGFTVSRNYMSWVRQAPGKGLEWVSVIYSGGTTHYADSVKGRFTISRHNSKNTLYLQMNSLRAEDTAVYYCARDLVVYGMDVWGQGTTVTVSS
chain 2: DIQLTQSPSFLSASVGDRVTITCRASQGISSYLAWYQQKPGKAPKLLIYAASTLQSGVPSSFSGSGSGTEFTLTISSLQPEDFATYYCQQLNSYPLTFGGGTKVEIK
B9: BD56-864 (protein)
chain 1: QVQLQESGPGLVKPSETLSLTCTVSGDSISGYYWSWIRQPPGKGLEWIGYIYYTGSTDYNPSLKSRVTISVDTSKNQFSLMLSSVTAADTAVYYCARGGIGGDSFDYWGQGTLVTVSS
chain 2: DIVMTQSPDSLAVSLGERATINCKSSQSVLYSSNNKNYLAWYQQKPGQPPKLLIYWASTRESGVPDRFSGSGSGTDFTLTITSLQAEDVAVYYCQQYYSTPLTFGQGTKVEIK

Assays:
Experiment in all cases: pseudovirus neutralization IC50; higher = weaker neutralization
[1] = biological target: SARS-CoV-2 Omicron BA.1 spike pseudovirus
Protocol: (§1)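 Single-round VSV luciferase pseudovirus mixed with antibody dilutions for 1 h and put on Huh-7 cells for about a day; IC50 from the dose curve.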

[2] = biological target: SARS-CoV-2 Omicron BA.2 spike pseudovirus
Protocol: as §1

[3] = biological target: SARS-CoV-2 Omicron BA.2.75 spike pseudovirus
Protocol: as §1

[4] = biological target: SARS-CoV-2 Omicron BA.2.75.2 spike pseudovirus
Protocol: as §1

[5] = biological target: SARS-CoV-2 Omicron BA.5 spike pseudovirus
Protocol: as §1

[6] = biological target: SARS-CoV-2 Omicron BM.1.1.1 spike pseudovirus
Protocol: as §1

[7] = biological target: SARS-CoV-2 Omicron BQ.1.1 spike pseudovirus
Protocol: as §1

[8] = biological target: SARS-CoV-2 Omicron BR.2 spike pseudovirus
Protocol: as §1

[9] = biological target: SARS-CoV-2 Omicron CA.1 spike pseudovirus
Protocol: as §1

[10] = biological target: SARS-CoV-2 Omicron XBB spike pseudovirus
Protocol: as §1

[11] = biological target: SARS-CoV-2 early D614G spike pseudovirus
Protocol: as §1

| Binder | pseudovirus neutralization IC50 [1] [µg/mL] | pseudovirus neutralization IC50 [2] [µg/mL] | pseudovirus neutralization IC50 [3] [µg/mL] | pseudovirus neutralization IC50 [4] [µg/mL] | pseudovirus neutralization IC50 [5] [µg/mL] | pseudovirus neutralization IC50 [6] [µg/mL] | pseudovirus neutralization IC50 [7] [µg/mL] | pseudovirus neutralization IC50 [8] [µg/mL] | pseudovirus neutralization IC50 [9] [µg/mL] | pseudovirus neutralization IC50 [10] [µg/mL] | pseudovirus neutralization IC50 [11] [µg/mL] |
| --- | --- | --- | --- | --- | --- | --- | --- | --- | --- | --- | --- |
| B1 | 0.423 | > 10 | > 10 | > 10 | > 10 | > 10 | > 10 | > 10 | > 10 | > 10 | > 10 |
| B2 |  |  |  |  |  |  | > 10 |  |  | > 10 |  |
| B3 | 0.00134 | 0.00252 | 0.00378 | 0.00808 | 0.939 | 1.19 | > 10 | 1.28 | 1.23 | 1.27 | > 10 |
| B4 | 0.00897 | > 10 | > 10 | > 10 | > 10 | > 10 | > 10 | > 10 | > 10 | > 10 | > 10 |
| B5 | 0.00513 | > 10 | > 10 | > 10 | > 10 | > 10 | > 10 | > 10 | > 10 | > 10 | > 10 |
| B6 | 0.0103 | 0.00382 | > 10 | > 10 | > 10 | > 10 | > 10 | > 10 | > 10 | > 10 | > 10 |
| B7 | 0.000785 | 0.0011 | 1.06 | > 10 | > 10 | > 10 | > 10 | > 10 | > 10 | > 10 | > 10 |
| B8 |  |  |  |  |  |  |  |  |  |  | 0.15 |
| B9 | 0.00379 | > 10 | > 10 | > 10 | > 10 | > 10 | > 10 | > 10 | > 10 | > 10 | > 10 |
